## Mutational tolerance of the Zika virus NS2B-NS3 protease

The scanned region of Zika virus MR766 is shown below (positions 1-308): NS2B is 2-131, NS3 begins at position 132.
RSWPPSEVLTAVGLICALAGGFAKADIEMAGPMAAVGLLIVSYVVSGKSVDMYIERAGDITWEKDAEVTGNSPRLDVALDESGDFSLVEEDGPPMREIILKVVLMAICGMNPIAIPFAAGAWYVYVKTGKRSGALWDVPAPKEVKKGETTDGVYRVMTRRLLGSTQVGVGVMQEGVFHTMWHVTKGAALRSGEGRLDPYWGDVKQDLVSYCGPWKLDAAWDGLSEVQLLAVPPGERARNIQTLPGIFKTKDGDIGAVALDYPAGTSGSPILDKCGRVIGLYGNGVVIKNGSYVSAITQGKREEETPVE

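Pools of virus carrying all single amino acid changes were selected for growth in Huh-7.5 cells. The effect is the change in frequency of a mutant, normalised to wild type, as a mean of three replicate libraries (two for positions 207-308). The study looked for pockets that tolerate few changes, as a guide for inhibitor design.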

The number is log2 of the effect relative to wild type; negative values mean reduced growth, higher values better tolerance.
Substitutions are written as wild-type residue, site number, new residue.
Position 1 still belongs to NS2A. In the paper, -1 or higher counts as tolerated.
Six mutants with high scores were retested singly and none clearly outgrew wild type, so positive values are not proof of better growth.
Positions 1-103, 104-206 and 207-308 were made and measured as separate libraries.
An asterisk is a stop codon; stop codons read about -7, near the floor of the assay.

mutation | log2 effect
S2M | -7.30
W3T | -7.03
P4* | -7.14
P5E | -6.03
P5M | -6.07
E7Q | -0.98
V8Q | -2.69
A11G | -1.87
V12N | -5.89
C16P | -7.64
A19M | -4.14
G20I | -5.99
K24D | -5.46
M29V | -1.02
M33H | -1.59
M33P | -6.43
M33Y | 0.29
A34C | -1.00
A35I | -5.72
G37A | -3.77
L38K | -6.36
L39G | -5.45
V41A | -1.53
S42T | -1.42
S46N | -1.39
S49W | -6.34
M52D | -5.47
I54G | -6.63
E55T | -2.71
R56A | -2.06
R56P | -1.40
D59N | -2.62
I60E | -5.83
I60T | -7.76
E67P | 0.03
L75H | -7.50
D76Q | -0.55
L79W | -6.22
E81T | -7.36
G83C | -2.91
E90Y | -0.16
P93Q | -3.50
M95P | -3.22
M95V | -1.35
R96C | -4.73
R96D | -4.70
I98P | -7.39
M105P | -6.11
G109W | -5.18
N111A | -2.17
I113Y | -4.75
I115A | -6.05
P116C | -4.93
F117T | -6.82
A118C | -1.09
A134N | -4.94
W136* | -6.68
D137* | -7.17
E143D | -3.27
V144D | -4.06
K145M | -1.31
T150L | -3.00
G152R | -6.25
V156C | -5.54
M157K | -2.95
R160A | -1.97
L162N | -5.29
T165S | -0.78
M172P | -6.39
M172S | -7.11
V176C | -3.48
M180K | -4.88
H182E | -3.89
A187* | -6.81
A187G | -4.19
A188V | -5.68
L189H | -5.42
G192* | -7.76
E193* | -6.56
G194T | -6.85
P198G | -7.37
P198L | -1.50
W200G | -7.50
V203G | -8.29
K204P | -7.57
D206T | -7.30
L207N | -7.04
S209H | -6.40
S209P | -6.03
P213M | -3.11
L216K | -6.88
D221H | -6.18
D221L | -6.58
S224C | -6.14
E225G | -6.71
E225Y | -4.14
V226Y | -5.32
L228F | -3.97
V231L | 1.43
E235T | -1.94
A237I | -0.52
A237V | -1.40
N239E | -5.60
I240C | -1.26
L243D | -4.31
I246K | -5.18
I246W | 1.66
K250E | -5.83
I254M | -3.57
I254W | -5.76
A256L | -7.30
V257G | -5.98
D260I | -4.20
G264R | -7.03
G267T | -5.87
V277H | -3.91
I278W | -4.83
G279C | -4.77
G279L | -6.21
L280T | -6.28
V285C | -5.20
I287W | -0.55
N289* | -6.68
Y292I | -4.46
T297* | -5.84
Q298E | -4.81
Q298Y | -4.58
V307G | -1.48
V307T | 0.30

The opening 15 entries, copied out:

S2M gave -7.30.
W3T gave -7.03.
P4* gave -7.14.
P5E gave -6.03.
P5M gave -6.07.
E7Q gave -0.98.
V8Q gave -2.69.
A11G gave -1.87.
V12N gave -5.89.
C16P gave -7.64.
A19M gave -4.14.
G20I gave -5.99.
K24D gave -5.46.
M29V gave -1.02.
M33H gave -1.59.

Reference: Ni et al. 2025, doi:10.1038/s41467-025-63602-z.